Taken from: PubChem BioAssay AID624099 (ICCB-Longwood, 2012)
Purpose: 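Human genes that papillomavirus E2 requires to repress the HPV18 LCR promoter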 (primary screen). Cells: human C33A cervical carcinoma cells (HPV-negative) stably expressing BPV1 E2 and an HPV18 LCR luciferase reporter. Reagent: siRNA pool against human genes, 40 nM. Timing: 72 h. Measured: 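Per-well luciferase luminescence, z-scored on each plate against the plate mean and SD with control wells left out, then averaged across three replicate plates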. Scale: mean z-score and z-score: higher = stronger reporter signal, weaker E2 silencing. Active means: 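Hit if mean z-score reaches 2 and two or more of three replicate z-scores also reach 2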.
The deposit covers about 21,000 reagents; this is a random part of them. Of all reagents, 497 (2.4%) got an active call. 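Higher z means weaker E2 silencing; only reporter increases were scored, and knock-downs that hurt cell survival may mask genuine repressor factors.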 A number with no mark means an inactive call. Reagent sequences are not shown.

| target | mean z-score | z-score, replicate A | z-score, replicate B | z-score, replicate C |
| --- | --- | --- | --- | --- |
| SMDT1 | 0.28 | 0.15 | 0 | 0.69 |
| LOC389394 (retired record) | 0 | 0 | 0.15 | -0.14 |
| SLC26A10P | -0.8 | -1.1 | -0.52 | -0.78 |
| ASF1B | 0.76 | 0.64 | 0.88 | – |
| CLCN2 | 1.02 | 1.03 | 0.85 | 1.17 |
| ATP5MC3 | 0.81 | 0.91 | 0.66 | 0.85 |
| TACC2 | 2 | 1.99 | 2.11 | 1.91 |
| MUC13 | -0.6 | -0.92 | -0.63 | -0.25 |
| BCR | 0.03 | -0.15 | 0.3 | -0.06 |
| TMEM212 | -0.39 | -0.23 | -0.89 | -0.06 |
| WDR36 | 0.02 | 0.17 | 0.18 | -0.28 |
| ENOX1 | 1.02 | 0.7 | 0.71 | 1.64 |
| SCG5 | 0.77 | 1.22 | 0.73 | 0.37 |
| PLAAT5 | -0.48 | -0.58 | -0.37 | -0.5 |
| PLA2G4F | -0.28 | -0.19 | -0.17 | -0.48 |
| SLTM | -1.1 | -1.13 | -1.37 | -0.8 |
| FLJ44385 (retired record) | 0.06 | 0.12 | 0.04 | 0.01 |
| FBLIM1P2 | -0.03 | 0.19 | -0.06 | -0.23 |
| VPS41 | 0.85 | 0.5 | 1.28 | 0.77 |
| RB1CC1 | 1.44 | 1.73 | 1.26 | 1.34 |
| POLA2 | 0.31 | 0.51 | 0.37 | 0.06 |
| LOC391481 (retired record) | 0.32 | 0.43 | 0.06 | 0.47 |
| FERRY3 | 0.66 | 0.58 | 0.7 | 0.72 |
| ST8SIA1 | -0.86 | -0.79 | -0.94 | -0.85 |
| SHFL | 0.34 | 0.09 | 0.49 | 0.44 |
| GRHL3 | -0.72 | -0.63 | -0.82 | -0.71 |
| DYRK1A | 0.05 | 0.8 | -0.44 | -0.22 |
| CHRM5 | 0.28 | 0.23 | 0.29 | 0.33 |
| NTPCR | -0.13 | -0.18 | -0.23 | 0.03 |
| ZFX | 1.37 | 1.04 | 1.62 | 1.47 |
| NHLRC3 | -0.08 | -0.44 | 0 | 0.19 |
| PTK2B | -0.36 | -0.53 | -0.37 | -0.18 |
| TENM3 | 0.18 | 0.15 | 0.03 | 0.37 |
| PLPP1 | 2.23 (active) | 2.53 | 2.29 | 1.85 |
| TCERG1 | 0.4 | 0.37 | 0.55 | 0.26 |
| MUCL3 | -0.36 | -0.46 | -0.37 | -0.24 |
| SLC7A13 | -0.56 | 0.03 | -0.8 | -0.91 |
| APOL3 | -0.09 | 0.14 | -0.18 | -0.21 |
| CNPY3 | 0.18 | 0.7 | 0.14 | -0.31 |
| SNX4 | 0.48 | 0.53 | 0.43 | 0.49 |
| CLDN22 | -0.5 | -0.26 | -0.5 | -0.74 |
| EID2 | -1.11 | -0.93 | -0.92 | -1.47 |
| ATAD1 | 1.25 | 1.5 | 1.08 | 1.18 |
| FHL2 | -2.12 | -2.14 | -1.91 | -2.31 |
| PCM1 | -1.48 | -1.48 | -1.55 | -1.41 |
| ZC3H11D | 0.76 | 0.45 | 1.19 | 0.65 |
| LRP11 | -1.09 | -0.89 | -1.19 | -1.18 |
| TOR4A | 0.8 | 0.52 | 0.71 | 1.17 |
| TFAP2E | -1.03 | -0.81 | -1.02 | -1.27 |
| LENEP | -0.38 | -0.9 | -0.13 | -0.1 |
| PPP1R14C | 0.01 | -0.11 | 0.36 | -0.22 |
| SUFU | 0.99 | 0.79 | 0.77 | 1.4 |
| OR52A1 | 0.37 | 0.42 | 0.53 | 0.17 |
| GIMAP1 | -1.09 | -1.64 | -0.66 | -0.96 |
| NIF3L1 | -0.99 | -1.45 | -0.84 | -0.69 |
| LOC391092 | -0.59 | -0.36 | -0.53 | -0.87 |
| ACOX3 | -0.77 | -0.76 | -0.65 | -0.9 |
| HGH1 | -1.13 | -0.69 | -1.23 | -1.47 |
| VN1R10P | -0.62 | -0.73 | -0.26 | -0.86 |
| SPHK2 | 0.23 | 0 | 0.03 | 0.66 |
| MLF1 | -0.71 | -0.69 | -0.79 | -0.65 |
| TMEM267 | 0.01 | 0.37 | -0.13 | -0.21 |
| NXN | 0.04 | 0.36 | -0.24 | 0.01 |
| ATPSCKMT | -0.48 | -0.13 | -0.56 | -0.76 |
| TROAP | 3.14 (active) | 3.39 | 2.96 | 3.08 |
| WRAP73 | 0.97 | 0.99 | 1.15 | 0.78 |
| CAMTA1 | -0.63 | -0.42 | -0.82 | -0.66 |
| IRS4 | -0.42 | -0.63 | -0.42 | -0.2 |
| HNF4A | -0.08 | -0.03 | 0.12 | -0.34 |
| GPM6A | 0.19 | 0.33 | 0.34 | -0.11 |
| PPRC1 | 1.18 | 1.26 | 0.94 | 1.33 |
| LINC03040 | -0.56 | -0.81 | 0.08 | -0.95 |
| GPR171 | -0.86 | -0.85 | -0.88 | -0.84 |

Entries listed above called active:
| target | mean z-score | z-score, replicate A | z-score, replicate B | z-score, replicate C |
| --- | --- | --- | --- | --- |
| PLPP1 | 2.23 (active) | 2.53 | 2.29 | 1.85 |
| TROAP | 3.14 (active) | 3.39 | 2.96 | 3.08 |
